# Laboratory results taken from PMC11578313, “Miniaturized Modular Click Chemistry‐enabled Rapid Discovery of Unique SARS‐CoV‐2 M^pro Inhibitors With Robust Potency and Drug‐like Profile” (Advanced Science, 2024).
# How the values were obtained:
# [1] = test system: SARS‐CoV‐2 (hCoV‐19/Korea/KCDC06/2020, wild type); type: cell-based; conditions: Calu‐3 cells
# [2] = test system: SARS‐CoV‐2 Omicron (hCoV‐19/Korea/KDCA447321/2021); type: cell-based; conditions: ratio of CC50 to EC50, Calu‐3
compound,measurement,setting,value
Cc1cncc(C(=O)N2C[C@H]3CC[C@@H](C2)N3[C@H](c2cccc(F)c2)c2cn(CCc3ccsc3)nn2)c1 [Compound C5N17B],more potent than AA‐625,[1],2 fold
same,more potent than GC‐14,[1],≈ 19 fold
same,fold more potent antiviral activity than C5N17A,[1]; EC50 ratio,76 fold
same,"S.I., SARS‐CoV‐2 Omicron",[2],> 741
